Source: the supplement of paper PMC9931576
Human monoclonal antibodies against the spike receptor-binding domain (heavy:light variable regions). IC50 against pseudoviruses bearing the spike of naturally observed variants; lower = stronger; >10 µg/ml means not reached at the top dose. No active / inactive call. The stated detection limit is 0.0005 µg/ml; values near or below 0.001 µg/ml lie at the floor of the assay.

B1: BD55-6447 (protein)
chain 1: QITLKESGPTLVKPTQTLTLTCTFYGFSLSTSGVGVGWIRQPPGKALEWLALIYWEDDKYYSPSLKNRLTITKDTSKDQVVLTMTNMDPVDTATYYCAHTMLFEYGDFDYWGQGTLVTVSS
chain 2: QSALTQPASVSGSPGQSITVSCSGITGDVGEYSYVSWYQQHPGKAPKLMIYDVSNRPSGVSNRFSGSKSGNTASLTISGLQAEDEAVYYCSSYKSSTTSRVFGGGTKLTVL
B2: BD55-6449 (protein)
chain 1: QAHLVQSGAEVKKPGASVKVSCKTSGYTFANYGVNWLRQAPGQGLEWMGWISTYNGNTNYAHNFQGRLTLTTDTSTATASMELRSLSSNDTAIYFCARDANSDGTGYHYRGGPFNWFDPWGQGTLVTVSS
chain 2: QSVLTQPPSASGTPGQRVTISCSGSISNIGSNYVHWYQQLPGAAPKLLIYKNNQRPSGVPDRFSGSKSGTSASLAISGLRSEDEADYYCAAWEDSPSGPWVFGGGTKVTVL
B3: BD55-6453 (protein)
chain 1: QVQLVQSGAEVKKPGASVKVSCKASGYTFTGYDINWVRQTTGQGLEWMGWMNPNSGDTGYAPKFQGRVTMTRNTSINTAYMELSSLTSEDTAVYYCARDGGGYYYGSGSHWGQGTLVTVSS
chain 2: DIQMTQSPSSLSASVGDRVTITCRASQTISYYLNWYQQKPGKAPKLLIFAASNLQGGVPPRFSGSGSGTDFTLTISGLQPEDFATYYCQQSYSTPYNFGQGTKLEI
B4: BD55-6454 (protein)
chain 1: EVQLVQSGAEVKKPGESLKISCKGSGYSFSTYWIAWVRQMPGKSLEWMGIIYPGGSDTRYSPSFQGQVTISVDNSISTAYLQWGSLKASDTARYYCARHAGELRSIDWQNNGMDVWGQGTTVTVSS
chain 2: DIQLTQSPSSLSASVGDRVTITCRASQSISTYLHWYQQKPGKAPKLLIYAASTLQSGVPSRFSGSGSGTAFSLTINSLQPEDFATYYCQQSYTIPTWTFGQGTKVEIK
B5: BD55-6456 (protein)
chain 1: QVQLVESGGGVVQPGRSLRLSCAASGLTFRRYGMHWVRQAPGKGLEWVAVISYDEINRYYADSVKGRFAISRDNSKNTLYLQMNSLRPEDTAVYYCAKAGGPYCGGGNCYSGYFDYWGQGTLVTVSS
chain 2: DIQMTQSPSSLSASVGDRVTITCQASQDIRNYLNWYQQKPGKAPKLLIYDTSNLETGVPSRFSGSGSGTDFTFTISSLQPEDIAIYYCQQYDNVPITFGQGTRLDIK
B6: BD55-6461 (protein)
chain 1: QLQLQESGPRLVKPSETLSLTCSVSGGSISSTTYYYWGWVRQSPGKGLEWIGTIHFDGTIHYNPSLKRRVTISVDTPKTQFSLRLTSVTAADTAVYFCTRPEIISGYSNEWQGPTFYFKSWGQGTQVTVSS
chain 2: SYVLTQPPSVSVAPGKTATITCVENNIGSQSVHWYQQKPGQAPVLVVFDNTARPSTIPERFSGFTSGNTATLTITGVEVGDEADYFCQVWDTSRNLVVFGGGTKVTVL

target: SARS-CoV-2 Omicron BA.1 spike pseudovirus; test: pseudovirus neutralization IC50; higher = weaker neutralization
Experimental: (§1)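 Single-round VSV luciferase pseudovirus mixed with antibody dilutions for 1 h and put on Huh-7 cells for about a day; IC50 from the dose curve.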

First: B1
Second: B2
The “pseudovirus neutralization IC50” value of the first is 2.1-fold lower: 3.14 µg/mL for the first, 6.55 µg/mL for the second.

B3 and B4 cannot be ordered by “pseudovirus neutralization IC50” value: over 10 µg/mL for the first, over 10 µg/mL for the second.

B5 and B6 cannot be ordered by “pseudovirus neutralization IC50” value: over 10 µg/mL for the first, over 10 µg/mL for the second.

target: SARS-CoV-2 Omicron BA.2 spike pseudovirus; test: as above
Experimental: as §1

Going from B1 to B2, the “pseudovirus neutralization IC50” value falls from over 10 µg/mL to 4.3 µg/mL.

B3 and B4 cannot be ordered by “pseudovirus neutralization IC50” value: over 10 µg/mL for the first, over 10 µg/mL for the second.

B5 and B6 cannot be ordered by “pseudovirus neutralization IC50” value: over 10 µg/mL for the first, over 10 µg/mL for the second.

target: SARS-CoV-2 Omicron BA.2.75 spike pseudovirus; test: as above
Experimental: as §1

First: B1
Second: B2
The “pseudovirus neutralization IC50” value of the first is higher: over 10 µg/mL for the first, 8.51 µg/mL for the second.

B3 and B4 cannot be ordered by “pseudovirus neutralization IC50” value: over 10 µg/mL for the first, over 10 µg/mL for the second.

B5 and B6 cannot be ordered by “pseudovirus neutralization IC50” value: over 10 µg/mL for the first, over 10 µg/mL for the second.

target: SARS-CoV-2 Omicron BA.5 spike pseudovirus; test: as above
Experimental: as §1

Going from B1 to B2, the “pseudovirus neutralization IC50” value falls from over 10 µg/mL to 5.85 µg/mL.

B3 and B4 cannot be ordered by “pseudovirus neutralization IC50” value: over 10 µg/mL for the first, over 10 µg/mL for the second.

B5 and B6 cannot be ordered by “pseudovirus neutralization IC50” value: over 10 µg/mL for the first, over 10 µg/mL for the second.

target: SARS-CoV-2 Omicron BQ.1.1 spike pseudovirus; test: as above
Experimental: as §1

B1 and B2 cannot be ordered by “pseudovirus neutralization IC50” value: over 10 µg/mL for the first, over 10 µg/mL for the second.

B3 and B4 cannot be ordered by “pseudovirus neutralization IC50” value: over 10 µg/mL for the first, over 10 µg/mL for the second.

B5 and B6 cannot be ordered by “pseudovirus neutralization IC50” value: over 10 µg/mL for the first, over 10 µg/mL for the second.

target: SARS-CoV-2 Omicron XBB spike pseudovirus; test: as above
Experimental: as §1

B1 and B2 cannot be ordered by “pseudovirus neutralization IC50” value: over 10 µg/mL for the first, over 10 µg/mL for the second.

B3 and B4 cannot be ordered by “pseudovirus neutralization IC50” value: over 10 µg/mL for the first, over 10 µg/mL for the second.

B5 and B6 cannot be ordered by “pseudovirus neutralization IC50” value: over 10 µg/mL for the first, over 10 µg/mL for the second.

target: SARS-CoV-2 early D614G spike pseudovirus; test: as above
Experimental: as §1

Compared with B1, B2 is 15-fold higher in “pseudovirus neutralization IC50” value: 0.336 µg/mL for the first, 4.88 µg/mL for the second.

B3 and B4 cannot be ordered by “pseudovirus neutralization IC50” value: over 10 µg/mL for the first, over 10 µg/mL for the second.

Compared with B5, B6 is lower in “pseudovirus neutralization IC50” value: over 10 µg/mL for the first, 2.02 µg/mL for the second.
